These results are taken from patent US10329542B2, “HBV RNAse H purification and enzyme inhibitors” (Saint Louis University, priority 2012, dated 2019).

The test system of this data set is HBV proteins and β-actin in Huh7 cells. Description: Viral and cellular protein accumulation (HBc and β-actin western, HBs ELISA). The class given is cell-based, human. (In general: An ELISA detects its analyte on a solid surface through an enzyme-linked reagent.)

With `CC(C)c1ccc(O)c(=O)c(O)c1` [Compound 46, beta-thujaplicinol], the β-actin levels entry (day four post-transfection, western) is reported as “unchanged”. Moreover, the “HBs expression and secretion” value (genotype D isolate, up to 20 μM, ELISA) was “unaffected”.
